In the assay the target is Human immunodeficiency virus type 1 integrase (Human immunodeficiency virus 1, UniProt Q7ZJM1). Kind of assay: Inhibition of recombinant HIV-1 integrase strand transfer activity using 32P 5' end-labeled linear 21'mer as substrate preincubated for 30 mins prior to substrate challenge by phosphorimaging analysis.

What is called IC50 is the midpoint of a concentration-inhibition curve.

For the compound `O=c1cc(-c2ccccc2)oc2cc(O)c(O)c(O)c12` [BAICALEIN], the IC50 was found to be 780 nM.

These data come from ChEMBL document CHEMBL3286361, “Design and discovery of flavonoid-based HIV-1 integrase inhibitors targeting both the active site and the interaction with LEDGF/p75” (Bioorg Med Chem, 2014).
